Assays:
[1] = tested on: HIV primary isolates; test: Neutralization of 19 HIV primary isolates by monovalent guinea pig sera (single infection cycle neutralization assay or fusion inhibition assay); assay type: cell-based, HIV-1
[2] = tested on: human PB lymphocytes and monocytes; test: Peptide membrane binding assay; conditions: compared with the peptide without E9V; FIG. 3

KQIINMWQVVGKAMYA-RPNNNTRKSIHIGPGRAFYATE
HIV primary isolates neutralized of those tested ([1]; also when criteria increased to greater than 80% neutralization vs. 50% neutralization): 19/19
primary isolates neutralized out of 19 primary isolates tested ([1]; monovalent serum from individual guinea pigs immunized with each peptide, listed as 62.19): 19 of 19

KQIINMWQVVGKAMYA-TRPNNNTRRRLSIGPGRAFYARR
binding of peptide to human PB lymphocytes and monocytes [2]: bound better

Source: patent US20080181906A1, “Polyvalent Immunogen” (priority 2003, published 2008)
